Laboratory results reported in US9493769B2 (priority 2004, dated 2016).

Biological target: P#10 protease (viral protease in its precursor context amplified from patient P#10) (Human immunodeficiency virus type 1, UniProt P12497, cells depend on it, form not given)
Experiment: Yeast-based resistance test in liquid media, short HIV-1 protease precursor from patient P#10 expressed in BY4741 yeast
Assay type: cell-based
Conditions: BY4741 yeast transformants, living cells read at 600 nm, GraphPad Prism fit

Cc1cccc(C)c1OCC(=O)N[C@@H](Cc1ccccc1)[C@@H](O)C[C@H](Cc1ccccc1)NC(=O)[C@H](C(C)C)N1CCCNC1=O [Lopinavir, lopinavir]
IC50: > 100 mM
